# Measured values published in patent USRE39240E1, “Conotoxins I” (dated 2006).
# Tested on: a particular receptor
# Assay: expected receptor affinity testing
# Details: believed that testing will show; not tested
substance,measurement,value
H-His-4Hyp-4Hyp-Cys-Cys-Leu-Tyr-Gly-Lys-Cys-Arg-Arg-Tyr-4Hyp-Gly-Cys-Ser-Ser-Ala-Ser-Cys-Cys-Gln-OH,expected affinity and specificity for a receptor,high affinity and specificity for a particular receptor
